Pooled drug test results. Numbers come from NIAID ChemDB, via PubChem.

Shared fields: whole-cell or culture tests; agent: HIV-2; cell line: CEM + CEM TK-; measure: EC50

An empty or dashed field is not shown.

smiles	strain or isolate	read by	value
CCC(C)C(NP(=O)(OC[C@@H]1C=C[C@H](n2cc(C)c(=O)[nH]c2=O)O1)Oc1ccccc1)C(=O)OC	ROD	syncytia	2.5 µM
Cc1cn([C@H]2C[C@H](N=[N+]=[N-])[C@@H](CN3C(=O)c4ccccc4C3=O)O2)c(=O)[nH]c1=O	ROD	syncytia	>230 µM
Cc1cn([C@H]2C=C[C@@H](COP3(=O)OCc4ccc5ccccc5c4O3)O2)c(=O)[nH]c1=O	ROD	syncytia	0.2 µM
CC(=O)OC(OC(C)=O)c1cc(C)c2c(c1)COP(=O)(OC[C@@H]1C=C[C@H](n3cc(C)c(=O)[nH]c3=O)O1)O2			2 µM
Cc1cn([C@H]2C[C@H](N=[N+]=[N-])[C@@H](CO)O2)c(=O)[nH]c1=O	ROD	syncytia	≥100 µM
CCCCN(CCCC)P(=O)(OCCSC(=O)C(C)(C)C)OC[C@H]1O[C@@H](n2cc(C)c(=O)[nH]c2=O)C[C@@H]1N=[N+]=[N-]	ROD		>10 µM
Cc1cccc2c1OP(=O)(OC[C@@H]1C=C[C@H](n3cc(C)c(=O)[nH]c3=O)O1)OC2	ROD	syncytia	0.06 µM
Cc1cn([C@H]2C=C[C@@H](COP3(=O)OCc4cc5ccccc5cc4O3)O2)c(=O)[nH]c1=O			4 µM
Cc1cn([C@H]2C[C@H](N=[N+]=[N-])[C@@H](COP3(=O)OCc4cc(Cl)ccc4O3)O2)c(=O)[nH]c1=O			>40 µM
CCOC(=O)CC1OP(=O)(OC[C@@H]2C=C[C@H](n3cc(C)c(=O)[nH]c3=O)O2)Oc2ccccc21	ROD	cytopathic effect / syncytia	25 µM
Cc1cn([C@H]2C=C[C@@H](COP3(=O)Oc4ccccc4C(C(Cl)(Cl)Cl)O3)O2)c(=O)[nH]c1=O			42 µM
Cc1cn([C@H]2C=C[C@@H](COP3(=O)OCc4cc5ccccc5cc4O3)O2)c(=O)[nH]c1=O	ROD	syncytia	7 µM
Nc1ccn([C@H]2CC[C@@H](CO)O2)c(=O)n1	ROD	syncytia	0.03 µM
Cc1cn([C@H]2C=C[C@@H](COP3(=O)OCc4cccc(CCC(=O)OC(C)(C)C)c4O3)O2)c(=O)[nH]c1=O	LAV-2	syncytia	1.14 µM
Cc1cn([C@H]2C=C[C@@H](CO)O2)c(=O)[nH]c1=O	ROD	cytopathic effect / syncytia	>10 µM
COC(=O)CCNP(=O)(OC[C@@H]1C=C[C@H](n2cc(C)c(=O)[nH]c2=O)O1)Oc1ccccc1	ROD	syncytia	7 µM
COC(=O)[C@H](C)NP(=O)(OC[C@@H]1O[C@H](n2ccc(N)nc2=O)CS1)Oc1ccccc1	ROD	syncytia	5.5 µM
CCOC(=O)[C@H](C)NP(=O)(OC[C@@H]1C=C[C@H](n2cc(C)c(=O)[nH]c2=O)O1)Oc1ccccc1	ROD	cytopathic effect / trypan blue	0.07 µM
Cc1cn([C@H]2C=C[C@@H](COP3(=O)OCc4cc(-c5ccccc5)ccc4O3)O2)c(=O)[nH]c1=O			2 µM
CCCCCCCCCCCCOCCOP(=O)(O)OC[C@H]1O[C@@H](n2cc(C)c(=O)[nH]c2=O)C[C@@H]1N=[N+]=[N-]	ROD	syncytia	>40 µM
Cc1cn([C@H]2C[C@H](N=[N+]=[N-])[C@@H](CN3C(=O)c4c(F)c(F)c(F)c(F)c4C3=O)O2)c(=O)[nH]c1=O	ROD	syncytia	>200 µM
Cc1cn([C@H]2C=C[C@@H](COP3(=O)Oc4cccc(Cl)c4C(C)O3)O2)c(=O)[nH]c1=O			7 µM
Cc1cn([C@H]2C[C@H](N=[N+]=[N-])[C@@H](CN3C(=O)c4cccc([N+](=O)[O-])c4C3=O)O2)c(=O)[nH]c1=O	ROD	syncytia	>200 µM
CCCCCCCCCCCCCCCCOP(=O)(O)OC[C@H]1O[C@@H](n2cc(C)c(=O)[nH]c2=O)C[C@@H]1N=[N+]=[N-]	ROD	syncytia	>40 µM
Cc1ccc2c(c1)COP(=O)(OC[C@H]1O[C@@H](n3cc(C)c(=O)[nH]c3=O)C[C@@H]1N=[N+]=[N-])O2			21 µM
Cc1cccc2c1OP(=O)(OC[C@@H]1C=C[C@H](n3cc(C)c(=O)[nH]c3=O)O1)OC2	LAV-2	syncytia	0.55 µM
Cc1cn([C@H]2C[C@H](N=[N+]=[N-])[C@@H](COP3(=O)OCc4ccccc4O3)O2)c(=O)[nH]c1=O			>20 µM
COC(=O)CC(OP(=O)(OC[C@@H]1C=C[C@H](n2cc(C)c(=O)[nH]c2=O)O1)OC(CC(=O)OC)c1ccccc1)c1ccccc1	ROD	cytopathic effect / syncytia	>10 µM
Cc1cc(C)c2c(c1)COP(=O)(OC[C@H]1O[C@@H](n3cc(C)c(=O)[nH]c3=O)C[C@@H]1N=[N+]=[N-])O2			7 µM
Cc1cn([C@H]2C[C@H](N=[N+]=[N-])[C@@H](CN3C(=O)c4cc(Cl)c(Cl)cc4C3=O)O2)c(=O)[nH]c1=O	ROD	syncytia	>200 µM
Cc1cn([C@H]2C=C[C@@H](COP(=O)(OCc3ccccc3)OCc3ccccc3)O2)c(=O)[nH]c1=O	ROD	cytopathic effect / syncytia	>10 µM
CCCCCCCCCCCCCCOP(=O)(O)OC[C@H]1O[C@@H](n2cc(C)c(=O)[nH]c2=O)C[C@@H]1N=[N+]=[N-]	ROD	syncytia	>40 µM

Again, the opening 4 rows:

smiles | strain or isolate | read by | value
CCC(C)C(NP(=O)(OC[C@@H]1C=C[C@H](n2cc(C)c(=O)[nH]c2=O)O1)Oc1ccccc1)C(=O)OC | ROD | syncytia | 2.5 µM
Cc1cn([C@H]2C[C@H](N=[N+]=[N-])[C@@H](CN3C(=O)c4ccccc4C3=O)O2)c(=O)[nH]c1=O | ROD | syncytia | >230 µM
Cc1cn([C@H]2C=C[C@@H](COP3(=O)OCc4ccc5ccccc5c4O3)O2)c(=O)[nH]c1=O | ROD | syncytia | 0.2 µM
CC(=O)OC(OC(C)=O)c1cc(C)c2c(c1)COP(=O)(OC[C@@H]1C=C[C@H](n3cc(C)c(=O)[nH]c3=O)O1)O2 |  |  | 2 µM

Lines come from different laboratories, so protocols vary. ECn: concentration that inhibits the pathogen or its effect by n%.